Compound potency records, mixed from different reports. Data source: NIAID ChemDB in PubChem.

All rows: growth or infection tests; agent: Mycobacterium tuberculosis

Inhibition is in % at the dose shown (toxicity tests: loss of growth or viability). A number after MIC or MFC names an inhibition level or a share of isolates. Two numbers with a dash give a range or band. Conditions beyond the fields shown may differ between rows. MIC bound comes from a single tested concentration. An empty or dashed field is not shown. ECn: concentration that inhibits the pathogen or its effect by n%.

structure	setting	read by	changes	dose	strain or isolate	endpoint	value
Cc1ccc(-c2cc(-c3ccc(Cl)cc3)nc(/N=C3\C(=O)N(CN4CCCCC4)c4ccccc43)n2)cc1		BACTEC		6.25 µg/mL	H37Rv	inhibition	89%
Nc1cc2nc3ccccc3c(=O)n2[nH]1		resazurin			H37Rv	MIC bound	>6.25 µg/mL
COc1ccc(C(=O)/C=C/c2cccc(I)c2)c(O)c1					H37Rv	MIC	>12.5 µg/mL
O=C(N[C@@H](Cc1ccccc1)c1cnc(-c2ccc([N+](=O)[O-])cc2)[nH]1)OCc1ccccc1	14 d				My 331/88	MIC	16 µM
C=CCOc1ccc(N=c2scc(C)n2-c2ccc(OCC=C)cc2)cc1					H37Rv	MIC	4 µg/mL
Cc1cc2c(cc1C)NC1=C(N2)OC(c2c[nH]c3ccc(COc4ccccc4)cc23)C1=O		BACTEC			H37Rv	MIC bound	>12.5 µg/mL
N#Cc1ccc(Nc2nc(Oc3cccc4cccnc34)nc(N3CCN(C(c4ccccc4)c4ccc(Cl)cc4)CC3)n2)cc1C(F)(F)F		agar			H37Rv	MIC99	6.25 µg/mL
CCc1c2c(nc3ccc(OCc4ccccc4)cc13)-c1cc3c(c(=O)n1C2)COC(=O)C3(O)CC		resazurin			H37Rv	MIC	25.9 µM
O=C(O)c1ccccc1C(=O)Oc1ccccc1Oc1ccccc1O					H37Rv	MIC	1000 µg/mL
CCc1c2c(nc3ccc(OCc4ccc(F)c(F)c4F)cc13)-c1cc3c(c(=O)n1C2)COC(=O)C3(O)CC		resazurin			H37Rv	MIC	23.29 µM
COc1cc(/C=C/C(C)C)cc(Oc2c([N+](=O)[O-])cc(/C=C/C(=O)O)cc2[N+](=O)[O-])c1O					H37Rv	MIC	7.8 µg/mL
CCc1c2c(nc3ccc(OCc4cc(F)cc(Cl)c4)cc13)-c1cc3c(c(=O)n1C2)COC(=O)C3(O)CC		resazurin	Extensively drug-resistant		XDR	MIC	5.85 µM
CCCCc1nc(Cl)c(/C=N/NC(N)=S)n1CCCN1CCN(c2ccccc2)CC1		agar			H37Rv	MIC	25 µg/mL
Cc1ccc(-c2cc(-c3ccc(Cl)cc3)nc(/N=C3\C(=O)N(CN4CCOCC4)c4ccc(Cl)cc43)n2)cc1		BACTEC			H37Rv	EC50	<6.25 µg/mL
O=C(CC1(O)C(=O)Nc2ccccc21)c1c[nH]c2ccccc12		BACTEC		6.25 µg/mL	H37Rv	inhibition	0%
O=C(NN1C(=O)CSC1c1ccccc1O)c1cc(-c2ccc(Cl)cc2)n[nH]1		broth dilution			H37Rv	MIC	0.35 µg/mL
Cc1ccc(-c2cc(-c3ccc(Cl)cc3)nc(/N=C3\C(=O)Nc4ccc(Cl)cc43)n2)cc1		BACTEC			H37Rv	EC50	<6.25 µg/mL
CCCCCc1cc(OC)c2ccccc2n1					MT4	MIC	42 µg/mL
N#Cc1ccc(Nc2nc(Oc3cccc4cccnc34)nc(N3CCN(c4cccc(Cl)c4)CC3)n2)cc1C(F)(F)F		BACTEC			H37Rv	MIC	>6.25 µg/mL
CC(C)N=c1cc2n(-c3ccc(Cl)cc3)c3ccccc3nc-2cc1Nc1ccc(Cl)cc1	multidrug-resistant				2227	MIC	0.06 µg/mL
CCCCc1nc(Cl)c(/C=N/NC(N)=S)n1CCCN1CCN(Cc2ccc(F)cc2)CC1		agar			H37Rv	MIC	50 µg/mL
CCc1c2c(nc3ccc(OCc4cc(OC)ccc4Br)cc13)-c1cc3c(c(=O)n1C2)COC(=O)C3(O)CC		resazurin			H37Rv	MIC	26.3 µM
CCOC(=O)Nc1nc2cc(C(=O)OC)n(C)c2s1		resazurin			H37Rv	MIC bound	>6.25 µg/mL
COc1ccc(-c2cc(=O)c3cc(C(=O)O)ccc3o2)cc1				12.5 µg/mL	H37Rv	inhibition	0%
N#Cc1ccc(Nc2nc(Oc3cccc4cccnc34)nc(N3CCN(C(c4ccccc4)c4ccccc4)CC3)n2)cc1C(F)(F)F		agar			H37Rv	MIC97	100 µg/mL
O=C(N[C@@H](Cc1ccccc1)c1cnc(-c2ccccc2)[nH]1)OCc1ccccc1	21 d				My 331/88	MIC	>250 µM
C=CCOc1ccc(N=C2SCC(=O)N2c2ccc(OCC=C)cc2)cc1					H37Rv	MIC	16 µg/mL
COc1ccc(CCC2CCc3ccccc3N2C)cc1OC					MT6	MIC	>100 µg/mL
COc1cc(C=O)cc(Oc2ccc(CC(=O)O)cc2[N+](=O)[O-])c1O					H37Rv	MIC	1000 µg/mL
NC(=N\N=C\c1ccc(Cl)c(Cl)c1)/C(N)=N/N=C/c1ccc(Cl)c(Cl)c1		BACTEC			H37Rv	MIC bound	>12.5 µg/mL
C[C@@H](NC(=O)OCc1ccccc1)c1cnc(-c2ccccc2)[nH]1	21 d				My 331/88	MIC	125 µM
O=C(NN1C(=O)[C@H](Cl)[C@H]1c1ccccc1[N+](=O)[O-])c1cc(-c2ccc(Cl)cc2)n[nH]1		broth dilution			H37Rv	MIC	>5 µg/mL
CC[N+](CC)=c1ccc2nc3c(cc(NCc4ccccc4)c4ccccc43)oc-2c1		BACTEC			H37Rv	MIC bound	≤12.5 µg/mL
O=C(N/N=C/c1ccc(Cl)cc1Cl)c1ccncc1					14PI	MIC	>5 µg/mL
Cc1csc(=Nc2ccc(OCCC(C)C)cc2)n1-c1ccc(OCCC(C)C)cc1					H37Rv	MIC	16 µg/mL
COc1cc(C=O)cc(Oc2c(OC)cc(C=O)cc2[N+](=O)[O-])c1O					H37Rv	MIC	1000 µg/mL
NNC(=O)c1ccncc1		agar			H37Rv	MIC	0.1 µg/mL
CC(=O)NC1CON(C(C)=O)C1=O		BACTEC			H37Rv	MIC	≥12.8 µg/mL
COc1cc(C(OC(C)=O)OC(C)=O)ccc1Oc1cc(C(OC(C)=O)OC(C)=O)cc(OC)c1OC(C)=O					H37Rv	MIC	125–250 µg/mL
CNC(=O)N(C)c1cc(N(C)C)nc(OC)n1		BACTEC			H37Rv	MIC bound	>12.5 µg/mL
O=C(N/N=C/c1ccccc1[N+](=O)[O-])c1cc(-c2ccc(Cl)cc2)n[nH]1		broth dilution			H37Rv	MIC	0.39 µg/mL
CCc1c2c(nc3ccc(OCc4ccc(I)cc4)cc13)-c1cc3c(c(=O)n1C2)COC(=O)C3(O)CC		resazurin	Extensively drug-resistant		XDR	MIC	20.55 µM
COc1cc(C(OC(C)=O)OC(C)=O)c([N+](=O)[O-])cc1Oc1cc(C(OC(C)=O)OC(C)=O)cc(OC)c1OC(C)=O					H37Rv	MIC	250–500 µg/mL
CCSC1OC(C(COC(C)=O)OC(C)=O)C(OC(C)=O)C1NC(=O)OCc1ccccc1		BACTEC			H37Rv	MIC	>12.5 µg/mL
CCc1ccc(N=c2scc(CCN3CCCCC3)n2-c2ccc(CC)cc2)cc1					H37Rv	MIC	125 µg/mL
NNC(=O)/C=C/c1ccncc1		BACTEC			H37Rv	MIC	≥12.5 µg/mL
Cc1noc(-c2nc(C)c3c(c2N)C(=O)N(Cc2cccc(OC(F)(F)F)c2)C3=O)n1		resazurin / visual reading	Ala317Thr		H37Rv-MA	MIC90	>10 µM
CCCCc1nc(Cl)c(/C=N/NC(N)=S)n1CCCN1CCN(c2ccc(C#N)cc2)CC1		agar			H37Rv	MIC	50 µg/mL
Cc1ccc(-c2cc(-c3ccc(Cl)cc3)nc(/N=C3\C(=O)N(CN(C)C)c4ccc(Cl)cc43)n2)cc1		BACTEC		6.25 µg/mL	H37Rv	inhibition	87%
C=C(C)C(=O)Nc1ccc(-n2[nH]c(C)c(N=Nc3ccc(N(C)C)cc3)c2=O)cc1		BACTEC		12.8 µg/mL	H37Rv	inhibition	51%
Cc1ccc(-c2cc(-c3ccc(Cl)cc3)nc(/N=C3\C(=O)N(CN(C)C)c4ccc(Br)cc43)n2)cc1		BACTEC			H37Rv	EC50	<6.25 µg/mL
COc1ccccc1Oc1ccc(C=O)cc1[N+](=O)[O-]					H37Rv	MIC	500–1000 µg/mL
N#Cc1ccc(Nc2nc(Oc3cccc4cccnc34)nc(N3CCOCC3)n2)cc1C(F)(F)F		BACTEC			H37Rv	MIC	>6.25 µg/mL
CCN(CC)CCCN(C)Cc1c(-c2ccccc2)oc(-c2ccccc2)c1Cl		BACTEC		12.5 µg/mL	H37Rv	inhibition	100%
O=[N+]([O-])c1cn2c(n1)OC[C@@H](OCc1ccc(C(F)(F)F)nc1)C2		resazurin			H37Rv	MIC90	0.053 µM
NNC(=S)N1CCN(C(=S)NN)CC1		BACTEC			H37Rv	MIC bound	>12.5 µg/mL
CCOC(=O)c1nc(C)c2c(c1N)C(=O)N(Cc1ccccc1)C2O		resazurin / visual reading			H37Rv-MA	MIC90	>10 µM
O=C(N[C@@H]1COc2nc([N+](=O)[O-])cn2C1)Oc1ccc(OC(F)(F)F)cc1		resazurin			H37Rv	MIC	>64 µM
CCCCc1nc(Cl)c(/C=N/NC(N)=S)n1CCCN1CCN(c2ccc(C(F)(F)F)cc2)CC1		agar			H37Rv	MIC	12.5 µg/mL
Cn1c(=O)c2c(nc3n(Cc4ccccc4)c(=O)c(NCCBr)cn23)n(C)c1=O		resazurin			H37Rv	MIC bound	>6.25 µg/mL
CC[C@@H](C)[C@H](NC(=O)OCc1ccccc1)c1cnc(-c2ccccc2)[nH]1	21 d				My 331/88	MIC	125 µM
COc1ccc(-c2oc3ccc(Cl)cc3c(=O)c2O)cc1					H37Rv	MIC	>12.5 µg/mL
CCc1c2c(nc3ccc(OCc4ccccc4[N+](=O)[O-])cc13)-c1cc3c(c(=O)n1C2)COC(=O)C3(O)CC		resazurin	Extensively drug-resistant		XDR	MIC	2.95 µM
S=C(S)NN1CCCC1		BACTEC		12.5 µg/mL	H37Rv	inhibition	100%
O=c1c(O)c(-c2ccccc2)oc2cc(Cl)ccc12					H37Rv	MIC	>12.5 µg/mL
CCCCc1nc(Cl)c(/C=N/NC(N)=S)n1CCCN1CCN(c2ccccc2OC)CC1		agar			H37Rv	MIC	3.13 µg/mL
COC(=O)Cc1cc(I)c(Oc2cc(C(Br)C(Br)[N+](=O)[O-])cc(OC)c2O)c(I)c1					H37Rv	MIC	31.25–125 µg/mL
COc1ccc(COC(=O)C2=C(CN3CCN(c4nc(=O)c5cc(C(Cl)(Cl)Cl)cc([N+](=O)[O-])c5s4)CC3)CSC3[C@H](NC(=O)Cc4ccccc4)C(=O)N23)cc1		resazurin			H37Rv	MIC	>100 µM
COc1cccc2c1C(=O)c1c(O)c3c(c(O)c1C2=O)C[C@@](O)(/C(C)=N/NC(=O)c1cccc([N+](=O)[O-])c1)C[C@H]3O[C@H]1CC(N)[C@H](O)[C@H](C)O1					CS-R	MIC	6.3 µg/mL
N#Cc1ccc(Nc2nc(Oc3cccc4cccnc34)nc(N3CCN(c4ccccn4)CC3)n2)cc1C(F)(F)F		BACTEC			H37Rv	MIC	>6.25 µg/mL
Cc1ccc(S(=O)(=O)OCC2OC(C)(C)OC3C(COS(=O)(=O)c4ccc(C)cc4)OC(C)(C)OC23)cc1		BACTEC		12.5 µg/mL	H37Rv	inhibition	8%
Cc1ccc(-c2cc(-c3ccc(Cl)cc3)nc(/N=C3\C(=O)N(CN4CCOCC4)c4ccccc43)n2)cc1		BACTEC		6.25 µg/mL	H37Rv	inhibition	86%
O=C(NN1C(=O)CSC1c1ccc(F)cc1)c1ccncc1					H37Rv	MIC	>5 µg/mL
NCCCCC(C(=O)NC(Cc1ccc(O)cc1)C(=O)NC(CO)C(=O)OCc1ccc([N+](=O)[O-])cc1)N(C(=O)OCc1ccccc1)C(=O)OCc1ccccc1		BACTEC			H37Rv	MIC	≥12.8 µg/mL
O=C(NN1C(=O)CSC1c1ccccc1F)c1ccncc1					14PI	MIC	>5 µg/mL
Nc1cc(O)c(C(=O)O)cc1F		resazurin			Erdman	MIC90	12.5 µg/mL
COC1=C2CC(C)CC(OC)C(O)C(C)/C=C(\C)C(OC(N)=O)C(OC)/C=C\C=C(/C)C(=O)NC(=C(C=NN(C)C)C1=O)C2=O		BACTEC		12.5 µg/mL	H37Rv	inhibition	29%
Nc1ccc(C(=O)/C=C/c2cccnc2N)cc1					H37Rv	MIC	>12.5 µg/mL
Cn1c(=O)nc2n(-c3ccc(Cl)cc3Cl)c3ccccc3nc-2c1=O		BACTEC			H37Rv	MIC bound	>12.5 µg/mL
CC1=C2C(=CO[C@H](C)[C@H]2C)C(=O)C(C(=O)O)=C1O				10 µg/mL	H37Rv	inhibition	66%

The last 7 rows once more:

{"structure": "NCCCCC(C(=O)NC(Cc1ccc(O)cc1)C(=O)NC(CO)C(=O)OCc1ccc([N+](=O)[O-])cc1)N(C(=O)OCc1ccccc1)C(=O)OCc1ccccc1", "read by": "BACTEC", "strain or isolate": "H37Rv", "endpoint": "MIC", "value": "≥12.8 µg/mL"}
{"structure": "O=C(NN1C(=O)CSC1c1ccccc1F)c1ccncc1", "strain or isolate": "14PI", "endpoint": "MIC", "value": ">5 µg/mL"}
{"structure": "Nc1cc(O)c(C(=O)O)cc1F", "read by": "resazurin", "strain or isolate": "Erdman", "endpoint": "MIC90", "value": "12.5 µg/mL"}
{"structure": "COC1=C2CC(C)CC(OC)C(O)C(C)/C=C(\\C)C(OC(N)=O)C(OC)/C=C\\C=C(/C)C(=O)NC(=C(C=NN(C)C)C1=O)C2=O", "read by": "BACTEC", "dose": "12.5 µg/mL", "strain or isolate": "H37Rv", "endpoint": "inhibition", "value": "29%"}
{"structure": "Nc1ccc(C(=O)/C=C/c2cccnc2N)cc1", "strain or isolate": "H37Rv", "endpoint": "MIC", "value": ">12.5 µg/mL"}
{"structure": "Cn1c(=O)nc2n(-c3ccc(Cl)cc3Cl)c3ccccc3nc-2c1=O", "read by": "BACTEC", "strain or isolate": "H37Rv", "endpoint": "MIC bound", "value": ">12.5 µg/mL"}
{"structure": "CC1=C2C(=CO[C@H](C)[C@H]2C)C(=O)C(C(=O)O)=C1O", "dose": "10 µg/mL", "strain or isolate": "H37Rv", "endpoint": "inhibition", "value": "66%"}